B1: P2C-1A3 (antibody, V domains shown)
VH: QVQLVESGGGLVKPGGSLRLSCAASGFTFSDYYMSWIRQAPGKGLEWVSYISSSGSTIYYADSVKGRFTISRDNAKNSLYLQMNSLRAEDTAVYYCARDFSHQQLVPSWGQGTLVTVSS
VL: not shown
notes: human IgG1, kappa
B2: P2C-1C8 (antibody, V domains shown)
VH: QVQLVESGGGVVQPGRSLRLSCAASGFTFRSYGMHWVRQAPGKGLEWVAVIWYDGSNKYYADSVKGRFTISRDNSKNTLYLQMNSLRAEDTAVYYCARDIEIVVVNIDYWGQGTLVTVSS
VL: not shown
notes: human IgG1, kappa
B3: P2C-1C10 (antibody, V domains shown)
VH: QVQLVQSGAEVKKPGSSVKVSCKASGGTFSSYAIIWVRQAPGQGLEWMGGIIPIFGTANYAQKFQGRVTITADESTSTAYMELSSLRSEDTAVYYCARVVTGYYFDYWGQGTLVTVSS
VL: EIVLTQSPATLSLSPGERATLSCRASQSVSSYLAWYQQKPGQAPRLLIYDASNRATGIPARFSGSGSGTDFTLTISSLEPEDFAVYYCQQRSNWPSFGQGTKLEIKR
notes: human IgG1, kappa

Molecular target: recombinant RBD of the spike protein of SARS-CoV (SARS-CoV, UniProt P59594 306-527)
Assay: SPR, RBD on CM5 chip

| Binder | binding result |
| --- | --- |
| B1 | no binding (tested: not printed) |
| B2 | no binding (tested: not printed) |
| B3 | no binding (tested: not printed) |

Source: patent US20210292392A1 (TSB THERAPEUTICS BEIJING, published 2021)
